{"source": "PubChem BioAssay AID624099 | ICCB-Longwood | 2012", "screen": "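Host factors E2 relies on to silence an HPV18 LCR reporter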 (primary screen)", "cell system": "human C33A cervical carcinoma cells (HPV-negative) stably expressing BPV1 E2 and an HPV18 LCR luciferase reporter", "knock-down reagent": "siRNA pool against human genes, 40 nM", "time to read-out": "72 h", "measurement": "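HPV18 LCR reporter light per well, converted to plate-wise z-scores that exclude control wells, and averaged over triplicate plates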", "scale": "mean z-score and z-score: higher = stronger reporter signal, weaker E2 silencing", "active means": "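Mean z ≥ 2 together with z ≥ 2 in two or more of the three replicates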", "note": "Here is a random part of about 21,000 reagents. 497 of them (2.4%) were called active. 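Higher z means weaker E2 silencing; only reporter increases were scored, and knock-downs that hurt cell survival may mask genuine repressor factors.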 Entries without a mark were called inactive."}
{"target gene": "GALNT10 (polypeptide N-acetylgalactosaminyltransferase 10)", "mean z-score": 1.46, "z-score, replicate A": 1.3, "z-score, replicate B": 1.64, "z-score, replicate C": 1.45}
{"target gene": "UBXN11 (UBX domain protein 11)", "mean z-score": 0.58, "z-score, replicate A": 0.48, "z-score, replicate B": 0.65, "z-score, replicate C": 0.61}
{"target gene": "MED17 (mediator complex subunit 17)", "mean z-score": -1.83, "z-score, replicate A": -1.76, "z-score, replicate B": -1.98, "z-score, replicate C": -1.74}
{"target gene": "A1BG (alpha-1-B glycoprotein)", "mean z-score": -1.08, "z-score, replicate A": -1.23, "z-score, replicate B": -1.12, "z-score, replicate C": -0.88}
{"target gene": "AOC3 (amine oxidase copper containing 3)", "mean z-score": -0.16, "z-score, replicate A": -0.17, "z-score, replicate B": -0.12, "z-score, replicate C": -0.19}
{"target gene": "SOX10 (SRY-box transcription factor 10)", "mean z-score": 1.12, "z-score, replicate A": 0.94, "z-score, replicate B": 1.06, "z-score, replicate C": 1.37}
{"target gene": "PFN4 (profilin family member 4)", "mean z-score": 0.41, "z-score, replicate A": 0.38, "z-score, replicate B": 0.41, "z-score, replicate C": 0.42}
{"target gene": "HOOK1 (hook microtubule tethering protein 1)", "mean z-score": 1.27, "z-score, replicate A": 1.87, "z-score, replicate B": 1.14, "z-score, replicate C": 0.8}
{"target gene": "SRRM3 (serine/arginine repetitive matrix 3)", "mean z-score": -0.84, "z-score, replicate A": -0.57, "z-score, replicate B": -0.91, "z-score, replicate C": -1.05}
{"target gene": "RAMAC (RNA guanine-7 methyltransferase activating subunit)", "mean z-score": 1.52, "z-score, replicate A": 1.46, "z-score, replicate B": 1.81, "z-score, replicate C": 1.3}

Continued, starting with the last 2 of the part before.
{"target gene": "SRRM3 (serine/arginine repetitive matrix 3)", "mean z-score": -0.84, "z-score, replicate A": -0.57, "z-score, replicate B": -0.91, "z-score, replicate C": -1.05}
{"target gene": "RAMAC (RNA guanine-7 methyltransferase activating subunit)", "mean z-score": 1.52, "z-score, replicate A": 1.46, "z-score, replicate B": 1.81, "z-score, replicate C": 1.3}
{"target gene": "TMIE (transmembrane inner ear)", "mean z-score": -0.03, "z-score, replicate A": -0.39, "z-score, replicate B": 0.08, "z-score, replicate C": 0.21}
{"target gene": "TPRG1 (tumor protein p63 regulated 1)", "mean z-score": -0.07, "z-score, replicate A": -0.18, "z-score, replicate B": -0.12, "z-score, replicate C": 0.1}
{"target gene": "CPA3 (carboxypeptidase A3)", "mean z-score": 0.2, "z-score, replicate A": 0.04, "z-score, replicate B": 0.28, "z-score, replicate C": 0.27}
{"target gene": "DNAJB13 (DnaJ heat shock protein family (Hsp40) member B13)", "mean z-score": -0.95, "z-score, replicate A": -0.79, "z-score, replicate B": -0.77, "z-score, replicate C": -1.3}
{"target gene": "MINDY3 (MINDY lysine 48 deubiquitinase 3)", "mean z-score": -0.28, "z-score, replicate A": -0.32, "z-score, replicate B": -0.4, "z-score, replicate C": -0.13}
{"target gene": "COX6B1 (cytochrome c oxidase subunit 6B1)", "mean z-score": -1.39, "z-score, replicate A": -1.41, "z-score, replicate B": -1.42, "z-score, replicate C": -1.34}
{"target gene": "HECTD1 (HECT domain E3 ubiquitin protein ligase 1)", "mean z-score": "2.07 (active)", "z-score, replicate A": 2.05, "z-score, replicate B": 2.04, "z-score, replicate C": 2.12}
{"target gene": "HOXA7 (homeobox A7)", "mean z-score": -0.43, "z-score, replicate A": -0.73, "z-score, replicate B": -0.24, "z-score, replicate C": -0.32}
{"target gene": "SOX3 (SRY-box transcription factor 3)", "mean z-score": -0.78, "z-score, replicate A": -0.99, "z-score, replicate B": -0.6, "z-score, replicate C": -0.76}
{"target gene": "CLCA2 (chloride channel accessory 2)", "mean z-score": -0.28, "z-score, replicate A": -0.06, "z-score, replicate B": -0.34, "z-score, replicate C": -0.43}
{"target gene": "FGGY (FGGY carbohydrate kinase domain containing)", "mean z-score": 0, "z-score, replicate A": 0.11, "z-score, replicate B": -0.03, "z-score, replicate C": -0.08}
{"target gene": "GRM3 (glutamate metabotropic receptor 3)", "mean z-score": -0.34, "z-score, replicate A": -0.16, "z-score, replicate B": -0.2, "z-score, replicate C": -0.66}
{"target gene": "TNFAIP1 (TNF alpha induced protein 1)", "mean z-score": -0.08, "z-score, replicate A": -0.18, "z-score, replicate B": -0.03, "z-score, replicate C": -0.03}
{"target gene": "SIRT2 (sirtuin 2)", "mean z-score": -0.14, "z-score, replicate A": -0.4, "z-score, replicate B": -0.12, "z-score, replicate C": 0.11}
{"target gene": "SELENOK (selenoprotein K)", "mean z-score": -0.6, "z-score, replicate A": -0.6, "z-score, replicate B": -0.78, "z-score, replicate C": -0.41}
{"target gene": "ANKK1 (ankyrin repeat and kinase domain containing 1)", "mean z-score": -0.6, "z-score, replicate A": -0.7, "z-score, replicate B": -0.79, "z-score, replicate C": -0.32}
{"target gene": "GEN1 (GEN1 structure-specific endonuclease)", "mean z-score": 1.13, "z-score, replicate A": 1.21, "z-score, replicate B": 1.16, "z-score, replicate C": 1.02}
